The results in this text go back to paper PMC9321043, “Synthesis, Structure–Activity Relationships, and Parasitological Profiling of Brussonol Derivatives as New Plasmodium falciparum Inhibitors” (Pharmaceuticals, 2022).

Molecules are shown by their SMILES. Several values for one entry are separate records, joined by “and”; a condition that tells them apart may be missing. Identical values can stand only once.

This data set has as its system HepG2 cells. Description: Cytotoxic test on immortalized cells, MTT. It is filed as cell-based, human. As to conditions: SI = IC50^HepG2/IC50^Pf. The procedure:
The cytotoxic effects of brussonol and derivatives were evaluated against the human hepatocellular carcinoma cell line (HepG2). The cells were cultivated in an RPMI medium supplemented with 10% (v/v) fetal bovine serum and 25 µg/mL gentamicin. Conditions for the cultivation of these cells were 37 °C and 5% CO2, and every 2 days the supplemented medium was changed.
For experimental procedures, the cells were trypsinized and transferred to a 96-well plate at 30,000 cells per well (180 µL). The plate was incubated at 37 °C and 5% CO2 to allow cell adhesion. Next, 20 µL of serial dilutions of the compounds tested were added to the plate, with a range of concentrations tested from 400–6.25 µM. Cells without any compounds were used as a positive control for growing and the wells containing only medium were used as negative controls. The plate was incubated for 72 h at 37 °C and 5% CO2. After incubation, a microscope was used to determine the highest compound concentration to be used in the experiments (highest concentration without precipitation). A colorimetric assay was used to evaluate cytotoxicity. This assay is based on the metabolic cell activity in the presence of 3-(4,5-dimethylthiazol-2-yl)-2,5-diphenyltetrazolium bromide (MTT). Shortly after incubation, 20 µL of a solution of MTT at 5 mg/mL (solubilized in phosphate buffer) is added to each well. The plate is incubated for 3 to 4 h at 37 °C to allow MTT cleavage in living cells. Then, the supernatant is removed, and 100 µL of dimethylsulfoxide (DMSO) is added to solubilize the purple formazan crystals. The absorbance, which is proportional to the number of viable cells, was determined using a SpectraMAX Plus 384 plate reader (Molecular Devices Corp., Sunnyvale, CA) (λ = 570 nm). All compounds described here were purchased from Sigma-Aldrich (verificar local).
After the IC50 against the parasite and the human cell line is determined, it is possible to calculate the SI. It is calculated as the formula below:SI = IC50^HepG2/IC50^Pf.
For our reference, compounds with SI values higher than 10 are considered well tolerated by the cellular model used, and they are considered for further evaluation.
With `COc1c2c(c(OC)c(C(C)C)c1OC)[C@@H]1C[C@H]3C(C)(C)CCC[C@@]3(C2)O1` (racemic) [Compound 8], the SI is > 30 and 34.
Under `COc1c2c(c(-c3ccccc3)c(C(C)C)c1OC)[C@@H]1C[C@H]3C(C)(C)CCC[C@@]3(C2)O1` (racemic) [Compound 11] stands over 2; under `COc1c2c(c(-c3ccccc3)c(C(C)C)c1OC)[C@@H]1C[C@H]3CCCC[C@@]3(C2)O1` (racemic) [Compound 15], over 8; under `COc1c(C(C)C)cc2c(c1OC)CC13CCCC(C)(C)C1CC2O3` (centres unmarked) [Compound 7], over 37.
Under `COc1c2c(c(Br)c(C(C)C)c1OC)C1CC3CCCCC3(C2)O1` (centres unmarked) [Compound 14] stands over 4.
